Results: PMC10640631, “Enhancing breadth and durability of humoral immune responses in non-human primates with an adjuvanted group 1 influenza hemagglutinin stem antigen” (2023)

What was measured:
[1] = target: CR9114; assay: ELISA; conditions: purified trimeric H1 stem protein from ExpiCHO cell cultures; n = 3; parent: est. 0.39; read off a plot
[2] = target: CT149; assay: ELISA; conditions: purified trimeric H1 stem protein from ExpiCHO cell cultures; n = 3; parent: est. 0.42; read off a plot
[3] = target: SD38; assay: ELISA; conditions: purified trimeric H1 stem protein from ExpiCHO cell cultures; n = 3; parent: est. 0.60; read off a plot
[4] = target: H1 stem v1 (based on H1N1pdm A/California/07/2009 HA) (Influenza A virus H1N1pdm A/California/07/2009); assay: SEC

| Substance | EC50 [1] [nM] | EC50 [2] [nM] | EC50 [3] [nM] | stoichiometry N [4] |
| --- | --- | --- | --- | --- |
| H1 stem v1 (based on H1N1pdm A/California/07/2009 HA) E434Q; Y392P | 0.41 | 0.44 | 0.63 |  |
| H1 stem v1 (based on H1N1pdm A/California/07/2009 HA) |  |  |  | 3 |
| H1 stem v1 (based on H1N1pdm A/California/07/2009 HA) E434Q; Y392R | 0.38 | 0.4 | 0.6 |  |
